In the data set the target is FasR wild-type (FasRwt) (Mycobacterium tuberculosis H37Rv) (UniProt O05858). Description: EMSA. Particulars: no acyl-CoA, apparent KD; recombinant protein; residues 1-228; protein details: N-terminal His6 (pET28a, uncleaved); label: 5'-32P on N2_Fas1Mt-prom strand; probe letters rebuilt from the primers and the genome.

Protein sequences, listed by entry. Tags and fused reporters are not part of them. Lines headed by an entry give the natural chain unless they say otherwise; changes in a name come on top.
UniProt O05858: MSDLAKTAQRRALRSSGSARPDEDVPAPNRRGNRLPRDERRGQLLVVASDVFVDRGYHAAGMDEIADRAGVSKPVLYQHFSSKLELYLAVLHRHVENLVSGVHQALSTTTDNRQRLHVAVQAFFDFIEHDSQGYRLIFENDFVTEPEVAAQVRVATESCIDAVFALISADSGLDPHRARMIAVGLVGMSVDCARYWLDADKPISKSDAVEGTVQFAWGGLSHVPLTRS

“CATAACGATTTGATAACAAAACTGCCTTGATCAGCGCAGTTATAGCTACTCCACCGTAACCACCTGCACGCAGGACGTTTGGTCAACACATACGCGCCGGCCGTCGAACCCGGCGTTACCCACGACACGGTTACCCGTACGTAGAACTCGCCAGTAACCGATCTGTGTAAACAAGGTGGACCGATCCTTATGAGACTCTTATAAGGCCGATGCAGCCCGTCGCGCTGCTCGACCCACGGGCCGGCCCACCGACAACACACCGGTCAGAGGATTTCGGCTGGGAGTCGGTGCGGAGTCGGGGATGCCCCGCACGGCAGCCTGGGCCGCTGTACGAACTGACACGTACCGATGCACATAGGGAGACATAGACCGTGACGATCCACGAGCACGACCGGGTG (double strand) [PfasMT promoter fragment (398 bp)]”: the Kd amounted to 0.083 µM.
